Results of unrelated studies side by side (data: NIAID ChemDB).

Shared fields: enzyme or target tests; species: HIV; target: Protease; read-out: IC50

Blank or dashed fields: not listed here. ICn is the concentration giving n% inhibition. Neighbouring rows are from separate reports. a–b is a range or a potency band.

{"structure": "O=C(C[C@@H](CC1CCCCC1)[C@@H](O)C[C@@H](Cc1ccc(O)cc1)C(=O)N[C@H]1c2ccccc2C[C@H]1O)NC1CCCC1", "method": "HPLC", "value": "0.001–0.1 µM"}
{"structure": "CCCN(C[C@H](O)CN1C[C@H]2CCCC[C@H]2C[C@H]1C(=O)NC(C)(C)C)S(=O)(=O)c1ccc(OC)cc1", "value": "14.8 µM"}
{"structure": "O=C(N[C@H]1c2ccccc2C[C@H]1O)[C@H](Cc1ccccc1)C[C@H](O)[C@@H](CCO)CC1CCCCC1", "method": "HPLC", "value": "0.001–0.1 µM"}
{"structure": "CCCC[C@@H](CN[C@@H](CCC(N)=O)C(=O)N[C@@H](CCCN=C(N)N)C(N)=O)NC(=O)[C@H](CCCC)NC(=O)C(NC(=O)C(NC(C)=O)[C@@H](C)O)[C@@H](C)CC", "method": "HPLC", "changes": "PR-L90M", "value": "<2.17 µM"}
{"structure": "O=C(CCCCCCCCC(=O)Nc1cc(S(=O)(=O)O)cc2cc(S(=O)(=O)O)cc(O)c12)Nc1cc(S(=O)(=O)O)cc2cc(S(=O)(=O)O)cc(O)c12", "method": "fluorescence", "value": "15 µM"}
{"structure": "CC(C)CN(C[C@H](O)CN1C[C@H]2CCCC[C@H]2C[C@H]1C(=O)NC(C)(C)C)S(=O)(=O)c1cccc(N)c1", "value": "0.38 µM"}
{"structure": "CC(C)(C)NC(=O)[C@@H]1CCCN1C(=O)[C@@H](O)[C@H](Cc1ccccc1)NC(=O)[C@H](CC(N)=O)NC(=O)COc1ccccc1[N+](=O)[O-]", "method": "HPLC", "value": "0.018 µg/mL"}
{"structure": "O=C(O)c1cc(NS(=O)(=O)c2cc(S(=O)(=O)Nc3cc(C(=O)O)c(O)c(S(=O)(=O)O)c3)cc(S(=O)(=O)Nc3cc(C(=O)O)c(O)c(S(=O)(=O)O)c3)c2)cc(S(=O)(=O)O)c1O", "method": "fluorescence", "value": "45 µM"}
{"structure": "CCCN(C[C@H](O)CN1C[C@H]2CCCC[C@H]2C[C@H]1C(=O)NC(C)(C)C)S(=O)(=O)c1ccc([N+](=O)[O-])cc1", "value": "35.75 µM"}
{"structure": "COC(=O)C(=O)N1CCC[C@H]1C(=O)N[C@@H](Cc1ccccc1)C(=O)Nc1cccc(OCC(=O)N[C@@H](CC(N)=O)C(=O)N[C@@H](Cc2ccccc2)[C@H](O)C(=O)N2CCC[C@H]2C(=O)NC(C)(C)C)c1", "method": "HPLC", "value": "0.027 µg/mL"}
{"structure": "CC(C)CN(C[C@@H](O)COC(=O)Nc1ccc2[nH]ccc2c1)S(=O)(=O)c1ccc([N+](=O)[O-])cc1", "value": "2.4 µM"}
{"structure": "O=S(=O)(O)c1cc(S(=O)(=O)O)c2cc(NS(=O)(=O)c3ccc(-c4ccc(S(=O)(=O)Nc5ccc6cc(S(=O)(=O)O)cc(S(=O)(=O)O)c6c5)cc4)cc3)ccc2c1", "method": "fluorescence", "value": "14 µM"}
{"structure": "CC(C)(C)NC(=O)[C@@H]1C[C@@H]2CCCC[C@@H]2CN1C[C@@H](O)CN(CCc1ccc2c(c1)OCO2)S(=O)(=O)c1ccc(N)cc1", "value": "1.78 µM"}
{"structure": "CC(C)(C)CC(=O)C[C@@H](CC1CCCCC1)[C@@H](O)C[C@@H](Cc1ccccc1)C(=O)N[C@H]1c2ccccc2C[C@H]1O", "method": "HPLC", "value": "0.0115–0.058 µM"}
{"structure": "COC(=O)C(=O)N1CCC[C@H]1C(=O)N[C@@H](Cc1ccccc1)C(=O)Nc1ccc(OCC(=O)N[C@@H](CC(N)=O)C(=O)N[C@@H](Cc2ccccc2)[C@H](O)C(=O)N2CCC[C@H]2C(=O)NC(C)(C)C)cc1", "method": "HPLC", "value": "0.034 µg/mL"}
{"structure": "O=C(CCCCCCCCC(=O)Nc1ccc(S(=O)(=O)O)c2cccc(S(=O)(=O)O)c12)Nc1ccc(S(=O)(=O)O)c2cccc(S(=O)(=O)O)c12", "method": "fluorescence", "value": "30 µM"}
{"structure": "CC(C)(C)NC(=O)[C@@H]1C[C@@H]2CCCC[C@@H]2CN1C[C@@H](O)CN(CCc1ccc2c(c1)OCO2)S(=O)(=O)c1ccc([N+](=O)[O-])cc1", "value": "37.1 µM"}
{"structure": "O=C(O)c1cc(NS(=O)(=O)c2cccc3c(S(=O)(=O)Nc4cc(C(=O)O)c(O)c(S(=O)(=O)O)c4)cccc23)cc(S(=O)(=O)O)c1O", "method": "fluorescence", "value": "80 µM"}
{"structure": "COC(=O)C(=O)N1CCC[C@H]1C(=O)N[C@@H](Cc1ccccc1)C(=O)Nc1ccccc1OCC(=O)N[C@@H](CC(N)=O)C(=O)N[C@@H](Cc1ccccc1)[C@H](O)C(=O)N1CCC[C@H]1C(=O)NC(C)(C)C", "method": "HPLC", "value": ">0.1 µg/mL"}

The last 2 rows once more:

structure | method | changes | value
O=C(O)c1cc(NS(=O)(=O)c2cccc3c(S(=O)(=O)Nc4cc(C(=O)O)c(O)c(S(=O)(=O)O)c4)cccc23)cc(S(=O)(=O)O)c1O | fluorescence |  | 80 µM
COC(=O)C(=O)N1CCC[C@H]1C(=O)N[C@@H](Cc1ccccc1)C(=O)Nc1ccccc1OCC(=O)N[C@@H](CC(N)=O)C(=O)N[C@@H](Cc1ccccc1)[C@H](O)C(=O)N1CCC[C@H]1C(=O)NC(C)(C)C | HPLC |  | >0.1 µg/mL